Share of PSTVd loop 6 variants by leaf site

The measurements come from Wu et al. 2024 (doi:10.1371/journal.ppat.1012142).

Region: loop 6 of PSTVd (intermediate strain), upper and lower strand joined, each 5' to 3', the first 5 letters being the upper strand, closing pairs included. Wild type: UGACCGCGAG. Varied positions (N): UNNNCGNNNG.

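A pool of all variants was put on leaves of three Nicotiana benthamiana plants. Samples came from the inoculated region at 5 days, the leaf margin at 10 and upper systemic leaves at 12.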

Values are reads per thousand in the sample; higher means more abundant, 0 means not found.
Each site shows the three plants.
"Pool" is the share in the plasmid pool used as inoculum, on the same scale.
The inoculated region was read from the minus strand, the other sites from the plus strand.

sequence,pool,inoculated region,leaf margin,systemic leaves
UACCCGCGGG,0.157,0.104 0.0180 0.111,0 0 0,0 0 0
UCAACGUAGG,0.170,0.139 0.0719 0.129,0.0276 0 0,0 0 0
UUGGCGCCAG,0.261,0.156 0 0.0922,0 0 0,0 0 0
UACACGAACG,0.118,0.573 0.629 0.461,0.0552 0.126 0.0232,0 0 0
UUAGCGUAAG,0.105,0.608 0.736 0.590,0.110 0 0,0.0359 0.0404 0.0410
UGAGCGCAGG,0.288,0.174 0.0359 0.0553,0 0 0,0 0 0
UACUCGAGUG,0.275,0.174 0.0898 0.0553,0.0276 0 0,0 0 0
UCAUCGAUGG,0.248,0.122 0.0719 0.129,0 0 0.0464,0 0 0
UUGUCGACAG,0.288,0.122 0.108 0.0184,0 0 0.0232,0 0 0.0205
UAGGCACGGG,0.0131,0 0 0,0 0 0,0 0 0
UCACCGAUGG,0.183,0.104 0.0719 0.129,0 0 0.116,0 0 0
UUGGCGUCGG,0.353,0.122 0.0539 0.0369,0 0 0.0232,0 0 0
UUUUCGAGGG,0.131,0.104 0.0719 0.166,0 0 0,0 0 0
UACACGGAUG,0.222,0.0695 0.0539 0.0553,0.0276 0 0,0 0 0
UGAUCGAGCG,0.366,0.0869 0.0719 0.129,0.0276 0 0,0 0 0
UCGGCGUGCG,0.209,0.139 0.108 0.0738,0 0 0.0464,0 0 0
UGGUCGGGGG,0.196,0.104 0.0180 0.111,0 0 0,0 0 0
UACACGUUAG,0.327,0.0869 0.0719 0.0369,0 0 0,0 0 0
UGCUCGGUCG,0.131,0.156 0.0719 0.0922,0.0276 0 0.0232,0 0 0
UGCACGUUUG,0.418,0.122 0.0719 0.111,0 0 0,0 0 0
UGCUCGAGGG,0.222,0.0869 0.144 0.0553,0 0 0,0 0 0
UGACCGAAAG,0.0392,0.156 0.180 0.166,0.359 1.64 0.0232,0.0719 0.101 0.185
UCAACGAAGG,0.0784,0.0695 0.0898 0,0 0 0.0232,0 0 0
UUAACGCUGG,0.222,0.191 0.0898 0.0369,0 0 0,0 0 0
UUUACGAGAG,0.261,0.730 0.719 0.516,0.138 0.126 0.0696,0 0 0
UCGACGCCCG,0.157,0.0869 0.162 0.0738,0 0 0.0232,0 0 0
UUUCCGGUAG,0.353,0.226 0.108 0.0738,0 0 0.0464,0.0180 0 0
UAAUCGGCGG,0.261,0.0869 0.0898 0.0738,0.0276 0 0,0 0 0
UCCACGAUAG,0.144,0.156 0.108 0.0738,0 0 0.209,0 0 0
UGGACUGUCC,0.0131,0 0 0,0 0 0,0 0 0
CUCGCGUUUG,0.0131,0 0 0,0 0 0,0 0 0
UUGACGUUGG,0.327,0.0869 0.162 0.111,0 0.0252 0.0232,0 0 0
UCCUCUGUGG,0.0131,0 0 0,0 0 0,0 0 0
UCGUCGUCUG,0.497,0.139 0.0359 0.0184,0 0 0.0232,0 0 0
UUCGCGGAGU,0.0131,0 0 0,0 0 0,0 0 0
UAGCCGGAUG,0.275,0.0869 0.126 0.0553,0.773 0 0.0464,0 0 0
UGACCGAUUG,0.536,0.313 0.287 0.221,0.138 0.202 0.232,0.126 0.364 1.03
UCCUCGAGUG,0.209,0.122 0.0719 0.0553,0 0 0,0 0 0
UGUACGGAGU,0.0131,0 0 0,0 0 0,0 0 0
UGAUCGUGAG,0.275,0.139 0.0719 0.203,0 0 0,0 0 0
UGCACGUGAG,0.183,0.0869 0.162 0.240,0.0276 0 0,0 0 0
UCCUCGGGGG,0.105,0.0348 0.0898 0.0922,0 0 0.0232,0 0 0
UCAGCGCGAU,0.0261,0.0174 0.0539 0.0553,0.0276 0 0.0232,0 0 0
UUCCCGAUCG,0.275,0.122 0.0898 0.0922,0 0 0,0 0 0.0205
UUUGCGUAUG,0.314,0.261 0.0719 0.0738,0.497 0 0,0 0 0
UUUCCGCGUG,0.170,0.156 0.108 0.184,0.0276 0.0252 0.0928,0 0 0
UUCCCGGGGG,0.170,0.0521 0.0359 0.0553,0 0 0.0232,0 0 0
UCGCCGGUUG,0.144,0.0348 0.108 0.0553,0 0 0,0 0 0
UUACCGAAUG,0.288,0.122 0.162 0.0738,0.0276 0 0.0232,0 0 0
UUGACGCCAG,0.183,0.122 0.126 0.0738,0 0 0,0 0 0

Excerpt, the final 4 entries:

UUCCCGGGGG (pool 0.170) read inoculated region 0.0521 0.0359 0.0553; leaf margin 0 0 0.0232; systemic leaves 0 0 0.
UCGCCGGUUG (pool 0.144) read inoculated region 0.0348 0.108 0.0553; leaf margin 0 0 0; systemic leaves 0 0 0.
UUACCGAAUG (pool 0.288) read inoculated region 0.122 0.162 0.0738; leaf margin 0.0276 0 0.0232; systemic leaves 0 0 0.
UUGACGCCAG (pool 0.183) read inoculated region 0.122 0.126 0.0738; leaf margin 0 0 0; systemic leaves 0 0 0.

Wild type was 20.7 per thousand in the pool and the most common sequence in every sample (inoculated region 195, 198, 203; leaf margin 629, 591, 734; systemic leaves 942, 870, 868).
The authors trace changes outside the varied positions to PCR and sequencing errors or to mutation in the plant; presence does not show that a variant is infectious alone.
With 36,220-57,551 reads a sample, very low values are single reads.